Each molecule was assayed on Influenza A/Perth/16/2009 (H3N2) virus. Conditions: drug alone; HBECs infected at 0.01 MOI.
Type: cell-based

| SMILES | TCID50 (viral titre) |
| --- | --- |
| Cc1cc(F)ccc1-c1nc(NC(CO)CO)nc2c1ccc(=O)n2-c1c(F)cccc1F [Dilmapimod] | neither PH797804 nor Dilmapimod treatment showed this effect |
| CNC(=O)c1ccc(C)c(-n2c(C)cc(OCc3ccc(F)cc3F)c(Br)c2=O)c1 [PH797804] | neither PH797804 nor Dilmapimod treatment showed this effect |
| OCCCn1cc2c(-c3ccc(F)cc3)c(-c3ccncc3)c(-c3ccc(F)cc3)nc2n1 [Formula II] | did not significantly reduce |
| CCC(CC)O[C@@H]1C=C(C(=O)O)C[C@H](N)[C@H]1NC(C)=O [oseltamivir] | reduced |

Reference: patent US11969412B2, “Methods and compounds for the treatment or prevention of hypercytokinemia and severe influenza” (Poolbeg Pharma (UK) Limited, priority 2017, dated 2024)
